Anti-infective test results gathered from many reports (values: NIAID ChemDB through PubChem).

Common to all: target-level tests; agent: Candida albicans; measure: IC50

ICn is the concentration giving n% inhibition.

SMILES	target	result
O=C(CCNCc1ccc2ccccc2c1)Nc1ccc2nc(NC(=O)C3CCCCC3)sc2c1	N-myristoyltransferase	0.18 µM
CCC1CCC(C(=O)Nc2nc3ccc(C(=O)N(C)C)cc3s2)CC1	N-myristoyltransferase	0.042 µM
CC(C)=CCc1c(O)cc(O)c2oc3cc(O)cc(O)c3c(=O)c12	Aspartic protease	15 µg/mL
O=C(NCCNCc1ccc2ccccc2c1)c1ccc2sc(NC(=O)C3CCCCC3)nc2c1	N-myristoyltransferase	6.8 µM
C=C(C)[C@@H]1CC[C@]2(C(=O)O)CC[C@]3(C)[C@H](CC[C@@H]4[C@@]5(C)CC[C@H](O)C(C)(C)[C@@H]5CC[C@]43C)[C@@H]12	Aspartic protease	6.5 µg/mL
CCN(CC)CCOC(=O)c1ccc2nc(NC(=O)C3CCCCC3)sc2c1	N-myristoyltransferase	1.5 µM
CC1(c2ccc(OCC#N)c(Cl)c2Cl)C(=O)c2ccccc2C1=O	Geranylgeranyl-protein transferase I	0.08 µM
Nc1ncc(OCCc2ccccc2)c(N)n1	Dihydrofolate reductase	1.237 µM
CCOc1c(Cl)cc2nc(S(N)(=O)=O)sc2c1Cl	Geranylgeranyl-protein transferase I	0.14 µM
O=C(NCCNCc1ccc2ccccc2c1)c1ccc2oc(NC(=O)C3CCCCC3)nc2c1	N-myristoyltransferase	1.1 µM
CCCCCCCC/C=C\CC/C=C/[C@H]1C[C@H]([C@](O)(CC(=O)O)C(=O)O)C(=O)O1	Geranylgeranyltransferase I	15 µM
O=C(CCNCc1ccc(-c2ccccc2)cc1)Nc1ccc2nc(NC(=O)C3CCCCC3)sc2c1	N-myristoyltransferase	0.078 µM
Nc1ncc(OCCc2ccc(OCc3ccccc3)cc2)c(N)n1	Dihydrofolate reductase	26.07 µM
CCOC(=O)c1oc2cccc(OCCCNCc3cccnc3)c2c1C	N-myristoyltransferase	0.1 µM
CN(C)CCOc1ccccc1/C=N\N1CCN(C2Cc3ccccc3Sc3ccc(Cl)cc32)CC1	Geranylgeranyl-protein transferase I	0.19 µM
Nc1ncc(OCCc2cccc3ccccc23)c(N)n1	Dihydrofolate reductase	0.431 µM

Conditions beyond the fields shown may differ between rows.